This assay has as its system Pa-LPS induced lung injury. Nature of the assay: Pa-LPS-induced lung injury, immunostaining of lung sections for ceramide, NFκB and NIMP-R14.
Setting [1] is: Cftr+/+ mice, 50 μg/mouse i.t., 24 hrs.

In the case of Fumonisin B1, under setting [1], the “Pa-LPS induced NFκB levels (lung immunostaining)” value is listed as “significant decrease”, the “Pa-LPS induced ceramide accumulation (lung immunostaining)” value is recorded as “significant decrease” and the “Pa-LPS induced neutrophil infiltration (NIMP-R14)” value is on record as “significant decrease”. In addition, the “controlling Pa-LPS induced lung injury (representative sections)” value (Cftr-/- mice) was “relatively less effective”.

(Values after patent US20130131146A1, “Compositions and Methods for Treating Pulmonary Conditions” (THE JOHNS HOPKINS UNIVERSITY, priority 2010, published 2013).)
